Measured values from several laboratories, pooled; numbers as filed in NIAID ChemDB.

Common to all: target-level tests; organism: Toxoplasma gondii; target: Dihydrofolate reductase; endpoint: IC50

ICn: concentration for n% inhibition. Neighbouring rows are from separate reports.

smiles	value
COc1ccc(OC)c(C(C)Cc2c[nH]c3nc(N)nc(N)c23)c1	0.16 µM
Nc1nc(N)c2cc(COC(=O)c3ccoc3)ccc2n1	0.25 µM
COc1ccc2c(c1)CCc1cc3c(N)nc(N)nc3nc1-2	0.11 µM
COc1cc(C(C)Cc2c[nH]c3nc(N)nc(N)c23)cc(OC)c1OC	0.0414 µM
Nc1nc(N)c2cc(COC(=O)C(c3ccccc3)c3ccccc3)ccc2n1	6.4 µM
COc1ccc2c(c1)CCc1nc3nc(N)nc(N)c3cc1-2	4.7 µM
Nc1nc(N)c2c(n1)C1CCC2C1	5.6 µM
Cc1ccc(CCc2cc3c(=O)[nH]c(N)nc3[nH]2)cc1	>37 µM
CC(Cc1coc2nc(N)nc(N)c12)C1c2ccccc2-c2ccccc21	10 µM
Nc1nc(N)c2cc3c(nc2n1)CCc1ccccc1-3	0.16 µM
CC/C=C/CC1=C(C)Cc2c(N)nc(N)nc21	30 µM
CC(Cc1coc2nc(N)nc(N)c12)c1ccccc1	37 µM
Nc1nc2[nH]c(CCc3ccccc3)cc2c(=O)[nH]1	39 µM
C/C(=C\c1coc2nc(N)nc(N)c12)c1ccccc1Cl	12 µM
Nc1nc2[nH]c(CCc3cccc4ccccc34)cc2c(=O)[nH]1	>33 µM
Nc1nc(N)c2c(n1)C1CCC(C2)C1	5.1 µM
Nc1nc(N)c2cc(COC(=O)c3ccc(-c4ccccc4)cc3)ccc2n1	1.73 µM
COc1ccc(CCc2cc3c(=O)[nH]c(N)nc3[nH]2)cc1	>37 µM
COc1cccc(OC)c1-c1cccc(C(=O)OCc2ccc3nc(N)nc(N)c3c2)c1	0.62 µM
COc1ccc2ccc3nc4nc(N)nc(N)c4cc3c2c1	0.34 µM

A second listing of 2 rows from above:

smiles,value
CC(Cc1coc2nc(N)nc(N)c12)C1c2ccccc2-c2ccccc21,10 µM
C/C(=C\c1coc2nc(N)nc(N)c12)c1ccccc1Cl,12 µM